How the values were obtained:
PrP^C = assay: Western blot of steady-state PrP^C levels in differentiated ReN VM cells; conditions: ReN VM cells expressing mutant CG-resistant ATP1A1 (r/r)
ATP1A1 = assay: Western blot of steady-state ATP1A1 levels in differentiated ReN VM cells; type: cell-based, human; conditions: ReN VM cells expressing mutant CG-resistant ATP1A1 (r/r)
ATP1A2 = assay: Western blot of steady-state ATP1A2 levels in differentiated ReN VM cells; type: cell-based, human; conditions: ReN VM ATP1A1 r/r cells
ATP1A3 = assay: Western blot of steady-state ATP1A3 levels in differentiated ReN VM cells; type: cell-based, human; conditions: ReN VM ATP1A1 r/r cells

## COC1C[C@H](O[C@H]2CC[C@]3(C)C4CC[C@]5(C)[C@@H](C6=CC(=O)OC6)[C@@H](OC(C)=O)C[C@]5(O)[C@@H]4CC[C@@H]3C2)OC(C)C1=O (stereo partly drawn) [I-3, 4′-dehydro-oleandrin]
PrP^C
  change of PrP^C levels in CG-resistant cells: no exemplary compound I-3-mediated reduction in PrP^C levels was observed
ATP1A1
  change of ATP1A1 levels in CG-resistant cells: precluded the changes in steady-state levels of ATP1A1
ATP1A2
  change of ATP1A2 levels in CG-resistant cells: prevented changes
ATP1A3
  change of ATP1A3 levels in CG-resistant cells: prevented changes

## COC1C[C@H](O[C@H]2CC[C@]3(C)C4CC[C@]5(C)[C@@H](C6=CC(=O)OC6)[C@@H](OC(C)=O)C[C@]5(O)[C@@H]4CC[C@@H]3C2)OC(C)[C@@H]1O (stereo partly drawn) [oleandrin, acetic acid [(3S,5R,10S,13R,14S,16S,17′R)-14-hydroxy-3-[[(2R,4S,5S,6S)-5-hydroxy-4-methoxy-6-methyl-2-tetrahydropyranyl]oxy]-10,13-dimethyl-17-(5-oxo-2H-furan-3-yl)-1,2,3,4,5,6,7,8,9,11,12,15,16,17-tetradecahydrocyclopenta[a]phenanthren-16-yl] ester]
PrP^C
  change of PrP^C levels in CG-resistant cells: neither the changes in ATP1A1 nor in PrP^C levels were observed
ATP1A1
  change of ATP1A1 levels in CG-resistant cells: neither the changes in ATP1A1 nor in PrP^C levels were observed
